{"source": "patent EP3603649A1", "about": "(priority 2018, dated 2020)", "test_system": "C. elegans animals expressing E200K mutated human PrP", "test": "Neuronal loss (number of GFP positive PLM neurons) in transgenic C. elegans", "settings": "tested 1 to 500 µM vs vehicle"}
{"smiles": "COC[C@H]1O[C@@H]2O[C@H]3[C@H](O)[C@@H](OC)[C@@H](O[C@H]4[C@H](O)[C@@H](OC)[C@@H](O[C@H]5[C@H](O)[C@@H](OC)[C@@H](O[C@H]6[C@H](O)[C@@H](OC)[C@@H](O[C@H]7[C@H](O)[C@@H](OC)[C@@H](O[C@H]8[C@H](O)[C@@H](OC)[C@@H](O[C@H]1[C@H](O)[C@H]2OC)O[C@@H]8COC)O[C@@H]7COC)O[C@@H]6COC)O[C@@H]5COC)O[C@@H]4COC)O[C@@H]3COC", "note": "[DIMEB, heptakis(2,6-O-dimethyl)beta-cyclodextrin]", "values": [{"measurement": "concentrations that significantly restored the number of mechano-sensory neurons", "value": "≥ 10", "unit": "µM"}]}
